Measured values from several laboratories, pooled; numbers as filed in NIAID ChemDB.

All rows: target-level tests; agent: Pneumocystis carinii

Blank or dashed fields: not listed here. ICn: concentration for n% inhibition. Lines come from different laboratories, so protocols vary. Inhibition is in % at the dose shown (toxicity tests: loss of growth or viability). Two numbers with a dash give a range or band.

Nc1ccc(S(=O)(=O)c2ccc(N)cc2)cc1 ; protein: Oxidosqualene cyclase ; method: HPLC ; read-out: Ki ; value: 9 µM
COc1cc(N2C(N)=NC(N)=NC2(C)C)cc(OC)c1OC ; protein: DHFR ; read-out: IC50 ; value: >26 µM
Nc1nc(N)c(-c2ccc(Cl)c(Cl)c2)c(COc2ccccc2)n1 ; protein: Dihydrofolate reductase ; read-out: IC50 ; value: 13.5 µM
Nc1nc(N)c2c(n1)CCc1cc(Cl)ccc1-2 ; protein: Dihydrofolate reductase ; read-out: IC50 ; value: 5.8 µM
Nc1nc(N)c2nc(CSc3ccccc3)cnc2n1 ; protein: Dihydrofolate reductase ; read-out: IC50 ; value: 9.5 µM
Nc1nc(N)c2c(ccc3c(Cl)cc(Cl)cc32)n1 ; protein: Dihydrofolate reductase ; read-out: IC50 ; value: 19 µM
COc1cc(NS(=O)(=O)c2ccc(N)cc2)c2ncccc2c1 ; protein: DHPS ; read-out: IC50 ; value: 0.38 µM
Nc1nc(N)c2cc(CO)cnc2n1 ; protein: Dihydrofolate reductase ; read-out: IC50 ; value: >104 µM
Nc1nc(N)c2c(ccc3ccc(Cl)cc32)n1 ; protein: Dihydrofolate reductase ; read-out: IC50 ; value: 0.12 µM
CCc1c(CNc2ccc(C(=O)NC(CC(=O)O)C(=O)O)cc2)ccc2nc(N)nc(N)c12 ; protein: Dihydrofolate reductase ; read-out: IC50 ; value: 0.0097 µM
N=C(N)c1ccc2nc(CCc3nc4ccc(C(=N)N)cc4[nH]3)[nH]c2c1 ; protein: Topoisomerase I ; read-out: IC50 ; value: ≤10 µM
Nc1nc(N)c2nc(CNc3ccccc3)cnc2n1 ; protein: DHFR ; read-out: IC50 ; value: >1.9 µM
Nc1nc(N)c2c(ccc3ccccc32)n1 ; protein: Dihydrofolate reductase ; read-out: IC50 ; value: 1.6 µM
Cc1cccc(C)c1N1C(N)=NC(N)=NC1(C)C ; protein: DHFR ; read-out: IC50 ; value: >20 µM
Nc1nc(N)c2c(n1)Cc1c(Cl)cccc1-2 ; protein: Dihydrofolate reductase ; read-out: IC50 ; value: 7.2 µM
COc1cc(Cc2cnc(N)nc2N)cc(OCCC(=O)NCC(=O)OCc2ccccc2)c1Br ; protein: DHFR ; read-out: IC50 ; value: 7.9 µM
Nc1nc(N)c2c(n1)CCc1ccc(Cl)cc1-2 ; protein: Dihydrofolate reductase ; read-out: IC50 ; value: 7 µM
COCCOCCOCCOc1c(OC)cc(Cc2cnc(N)nc2N)cc1OC ; protein: DHFR ; read-out: IC50 ; value: 36 µM
N=C(N)c1ccc2nc(/C=C/c3nc4ccc(C(=N)N)cc4[nH]3)[nH]c2c1 ; protein: Topoisomerase II ; read-out: IC50 ; value: 0.31–1.25 µM
N=C(N)c1ccc2nc(CCCCc3nc4ccc(C(=N)N)cc4[nH]3)[nH]c2c1 ; protein: Topoisomerase I ; read-out: IC50 ; value: 10–12 µM
Nc1nc(N)c2nc(CSc3ccccc3)cnc2n1 ; protein: DHFR ; read-out: IC50 ; value: 9.5 µM
CN(Cc1cnc2nc(N)nc(N)c2n1)c1c(Cl)cc(C(=O)N[C@@H](CCC(=O)O)C(=O)O)cc1Cl ; protein: Dihydrofolate reductase ; read-out: IC50 ; value: 0.000035 µM
CC(C)N=C(N)c1ccc2nc(/C=C\c3nc4ccc(C(N)=NC(C)C)cc4[nH]3)[nH]c2c1 ; protein: Topoisomerase II ; read-out: IC50 ; value: 0.312 µM
O=[N+]([O-])c1ccc(-c2cc(Cl)c3cc(S(=O)(=O)F)ccc3n2)cc1 ; protein: DHFR ; read-out: IC50 ; value: 41 µM
CN(Cc1cnc2nc(N)nc(N)c2n1)c1ccc(C(=O)N[C@H](CCC(=O)O)C(=O)O)cc1I ; protein: DHFR ; read-out: IC50 ; value: 0.000104 µM
O=C(O)c1cc(Sc2ccc(O)c(C(=O)O)c2)ccc1O ; tested at: 100 µM ; protein: DHFR ; read-out: inhibition ; value: 13%
Nc1ccc(S(=O)(=O)Nc2ccc(Cl)nn2)cc1 ; protein: DHPS ; read-out: IC50 ; value: >0.05 µM
COc1cc(Cc2cnc(N)nc2N)cc(OC)c1C(=O)CS(=O)(=O)c1ccccc1 ; protein: DHFR ; read-out: IC50 ; value: 14.8 µM
Cc1cc(C(=O)O)cc(C)c1N(C)Cc1cnc2nc(N)nc(N)c2n1 ; protein: DHFR ; read-out: IC50 ; value: 0.19 µM
Nc1nc(N)c2c(ccc3cc(Br)ccc32)n1 ; protein: Dihydrofolate reductase ; read-out: IC50 ; value: 0.5 µM
N=C(N)c1ccc2nc(/C=C/c3nc4ccc(C(=N)N)cc4[nH]3)[nH]c2c1 ; protein: Topoisomerase II ; read-out: IC50 ; value: 1.25 µM
c1cc2nc(CCCCc3nc4ccc(C5=NCCN5)cc4[nH]3)[nH]c2cc1C1=NCCN1 ; protein: Topoisomerase I ; read-out: IC50 ; value: ≤10 µM
Cc1noc(NS(=O)(=O)c2ccc(N)cc2)c1C ; protein: DHPS ; read-out: IC50 ; value: >0.05 µM
O=C1C=CC(=Nc2cc(Cl)c(O)c(Cl)c2)C=C1Cl ; protein: DHFR ; read-out: IC50 ; value: 95 µM
COc1cccc2c1CCN2Cc1cnc2nc(N)nc(N)c2c1C ; protein: Dihydrofolate reductase ; read-out: IC50 ; value: 0.25 µM
COc1ccc2c(c1)CCc1nc(N)nc(N)c1-2 ; protein: Dihydrofolate reductase ; read-out: IC50 ; value: 6.2 µM
CC(=CCC/C(C)=C/COCCCc1ccccc1)CCC(=O)N(C)C ; protein: Oxidosqualene cyclase ; read-out: IC50 ; value: >10 µM
O=C1C(=O)c2ccccc2C(O)=C1C1CCC(c2ccc(Cl)cc2)CC1 ; tested at: 100 µM ; protein: Dihydroorotate dehydrogenase ; read-out: inhibition ; value: 76.3%
CC(=O)Nc1ccc(S(=O)(=O)Nc2ccc3oc(=O)[nH]c3c2)cc1 ; protein: DHPS ; read-out: IC50 ; value: >10 µM
Cc1c(N)cc(Cc2cnc(N)nc2N)cc1-n1cccc1 ; protein: DHFR ; read-out: IC50 ; value: 33.5 µM
COc1ccccc1NC1=C(Cl)C(=O)C(Nc2ccccc2OC)=C(Cl)C1=O ; tested at: 100 µM ; protein: DHFR ; read-out: inhibition ; value: 31%

Again, the opening 3 rows:

structure,tested at,protein,method,read-out,value
Nc1ccc(S(=O)(=O)c2ccc(N)cc2)cc1,-,Oxidosqualene cyclase,HPLC,Ki,9 µM
COc1cc(N2C(N)=NC(N)=NC2(C)C)cc(OC)c1OC,-,DHFR,-,IC50,>26 µM
Nc1nc(N)c(-c2ccc(Cl)c(Cl)c2)c(COc2ccccc2)n1,-,Dihydrofolate reductase,-,IC50,13.5 µM